Measured values from several laboratories, pooled; numbers as filed in NIAID ChemDB.

Common to all: growth or infection tests; species: Reovirus; strain: TYPE 1; read-out: EC50

Conditions beyond the fields shown may differ between rows. An empty or dashed field is not shown. ECn: concentration that inhibits the pathogen or its effect by n%.

compound	method	cells	value
CC=NC(=N)c1nc(-c2ccc(C)cc2)n(COCCO)n1	cytopathic effect	VERO	>100 µg/mL
Cc1ccn2c(C3OCCO3)cnc2c1	-	VERO	>1000 µM
NC(=O)c1cncc([C@H]2O[C@H](CO)[C@@H](O)[C@@H]2O)c1	cytopathic effect	VERO	≥100 µg/mL
CC(=O)OCCOCN1C=C(C#N)C(N)=NS1(=O)=O	-	VERO	>400 µg/mL
Nc1ccn([C@@H]2OC[C@H](CO)[C@H]2O)c(=O)n1	cytopathic effect	VERO	>80 µg/mL
NC1=Nn2c(nnc2-c2cn(-c3ccccc3)nc2-c2ccccc2)SC1	cytopathic effect	VERO	>16 µg/mL
CC=NC(=N)c1nc(-c2ccc(OC)cc2)n(COCCO)n1	cytopathic effect	VERO	150 µg/mL
NC(=O)CSc1ncnc2c1cnn2COCCO	cytopathic effect	VERO	>400 µg/mL
Nc1ncnc2c1ncn2[C@H]1OC[C@@H](CO)C1O	cytopathic effect	VERO	>80 µg/mL
COc1ccc2[nH]c3c(c2c1)CCN1OCSCC(N)[C@@H]31	cytopathic effect	VERO	0.07 µg/mL
C=CCc1nc(C)n2c(=O)[nH]cnc12	cytopathic effect	VERO	>200 µg/mL
CC=NC(=N)c1nc(-c2ccc(OC)cc2)n(Cc2ccccc2)n1	cytopathic effect	VERO	>10 µg/mL
CCOC(=O)C1Sc2nnc(-c3cn(-c4ccccc4)nc3-c3ccccc3)n2NC1=O	cytopathic effect	VERO	>16 µg/mL
NC(=O)c1cncc([C@@H]2O[C@H](CO)[C@@H](O)[C@@H]2O)c1	cytopathic effect	VERO	≥100 µg/mL
O=c1[nH]c(=O)n(C2C[C@H](CO)[C@@H](CO)C2)cc1I	-	VERO	>100 µg/mL
CC1(C)[C@@H](CO)CC[C@@]1(C)Cn1nnc2c(N)ncnc21	cytopathic effect	VERO	>400 µg/mL
OC[C@H]1O[C@@H](c2cc(/C=C/Br)c(F)cc2F)C[C@@H]1O	cytopathic effect	VERO	>16 µg/mL
NC1CCCON2CCc3c([nH]c4ccccc34)[C@H]12	cytopathic effect	VERO	2 µg/mL
Nc1ncnc2c1ncn2C(CF)CCCO	cytopathic effect	VERO	>400 µg/mL
CC(=O)OCCOCN1C(=N)/C(=C(\C)O)C(N)=NS1(=O)=O	-	VERO	>400 µg/mL
OC[C@H]1O[C@@H](c2cncc(Br)c2)[C@@H](O)[C@H]1O	cytopathic effect	VERO	≥100 µg/mL
CC1(C)[C@@H](CO)CC[C@@]1(C)Cn1cc(Br)c(=O)[nH]c1=O	cytopathic effect	VERO	>400 µg/mL
Cc1nc(CC(O)CO)c2nc[nH]c(=O)n12	cytopathic effect	VERO	>400 µg/mL
NC(=S)c1cncc([C@H]2O[C@H](CO)[C@@H](O)[C@@H]2O)c1	cytopathic effect	VERO	≥100 µg/mL
NC1=CC(N)=NS(=O)(=O)N1COCCO	-	VERO	>400 µg/mL
C=CCc1ncn2c(=O)[nH]c(NC(C)=O)nc12	cytopathic effect	VERO	>200 µg/mL
Cc1ccn2c(C3SCCS3)cnc2c1	-	VERO	>1000 µM
CC(=O)OCCOCN1C(N)=CC(N)=NS1(=O)=O	-	VERO	>400 µg/mL
CC(C)Nc1ncnc2c1ncn2C1C[C@H](CO)[C@@H](CO)C1	-	VERO	>100 µg/mL
CC(=O)OCCOCN1C(=O)C=CN(COCCO)S1(=O)=O	-	VERO	>400 µg/mL
CCC(Sc1ncnc2c1cnn2CCCCO)C(N)=O	cytopathic effect	VERO	>400 µg/mL
OC[C@H]1O[C@H](c2cc(Cl)c(F)cc2F)C[C@@H]1O	cytopathic effect	VERO	>80 µg/mL
Cc1cccn2c(C3OCCO3)cnc12	-	VERO	>1000 µM
CC(C)CS[C@@H]1C=C[C@H](n2cnc3c(N)ncnc32)C1	cytopathic effect	HeLa	>3.2 µg/mL
CC1(C)[C@@H](CO)CC[C@@]1(C)Cn1cnc2c(Cl)ncnc21	cytopathic effect	VERO	>400 µg/mL
Nc1ccn(CCCC(O)CF)c(=O)n1	cytopathic effect	VERO	>400 µg/mL
Cc1cn([C@@H]2OC[C@H](CO)[C@H]2O)c(=O)[nH]c1=O	cytopathic effect	VERO	>80 µg/mL
Cc1ccn2c(C3OCCS3)cnc2c1	-	VERO	>1000 µM
S=c1[nH]nc(-c2cn(-c3ccccc3)nc2-c2ccccc2)o1	cytopathic effect	VERO	>16 µg/mL
CC1(C)[C@@H](CCO)C[C@H]1n1cnc2c(=O)[nH]cnc21	cytopathic effect	VERO	>400 µg/mL
NC1CSCCN2CCc3c([nH]c4ccccc34)[C@H]12	cytopathic effect	VERO	0.7 µg/mL
NC(=O)c1cncc([C@@H]2O[C@H](CO)[C@H](O)[C@@H]2O)c1	cytopathic effect	VERO	≥100 µg/mL
NC(=O)CSc1ncnc2c1cnn2CCCCO	cytopathic effect	VERO	>400 µg/mL
O=c1ccn([C@@H]2C[C@H](CO)C[C@H]2CO)c(=O)[nH]1	-	VERO	>100 µg/mL
Nc1ncnc2c1ncn2[C@@H]1C[C@H](COP(=O)(O)O)[C@@H](O)[C@H]1O	cytopathic effect	VERO	>200 µg/mL
CC1(C)[C@@H](CCO)C[C@H]1n1nnc2c(Cl)nc(N)nc21	cytopathic effect	VERO	200 µg/mL
C=C(N=CC)c1nc(-c2ccc(C)cc2)n([C@@H]2O[C@H](CO)[C@@H](O)[C@H]2O)n1	cytopathic effect	VERO	>40 µg/mL
Nc1ncnc2c1ncn2C1CC(COP(=O)(O)O)[C@@H](O)[C@H]1O	cytopathic effect	VERO	≥10 µg/mL
CCOC(=O)C1=CSc2nnc(-c3cn(-c4ccccc4)nc3-c3ccccc3)n2N=C1N	cytopathic effect	VERO	>16 µg/mL
C=C(N=CC)c1nc(-c2ccccc2)n([C@@H]2O[C@H](CO)[C@@H](O)[C@H]2O)n1	cytopathic effect	VERO	>100 µg/mL
Cc1cn(C(CF)CCCO)c(=O)[nH]c1=O	cytopathic effect	VERO	>400 µg/mL
CC=NC(=N)c1nc(-c2ccc(C)cc2)n(C/C=C/c2ccccc2)n1	cytopathic effect	VERO	>10 µg/mL
CC1(C)[C@@H](CCO)C[C@H]1n1cnc2c(N)nc(N)nc21	cytopathic effect	VERO	>400 µg/mL

Repeating the first 7 entries:

compound | method | cells | value
CC=NC(=N)c1nc(-c2ccc(C)cc2)n(COCCO)n1 | cytopathic effect | VERO | >100 µg/mL
Cc1ccn2c(C3OCCO3)cnc2c1 | - | VERO | >1000 µM
NC(=O)c1cncc([C@H]2O[C@H](CO)[C@@H](O)[C@@H]2O)c1 | cytopathic effect | VERO | ≥100 µg/mL
CC(=O)OCCOCN1C=C(C#N)C(N)=NS1(=O)=O | - | VERO | >400 µg/mL
Nc1ccn([C@@H]2OC[C@H](CO)[C@H]2O)c(=O)n1 | cytopathic effect | VERO | >80 µg/mL
NC1=Nn2c(nnc2-c2cn(-c3ccccc3)nc2-c2ccccc2)SC1 | cytopathic effect | VERO | >16 µg/mL
CC=NC(=N)c1nc(-c2ccc(OC)cc2)n(COCCO)n1 | cytopathic effect | VERO | 150 µg/mL